Anti-infective test results gathered from many reports (values: NIAID ChemDB through PubChem).

Common to all: tests in culture; species: Herpes simplex virus 2; endpoint: EC50

ECn is the concentration giving n% inhibition of infection, replication or growth. Rows are shuffled and stem from different studies. a–b is a range or a potency band. An empty or dashed field is not shown.

smiles	strain or isolate	cell line	method	result
Nc1ccn(C[C@@H](CO)OCP(=O)(O)O)c(=O)n1	-	MRC-5	-	14.3 µM
Nc1ccn([C@H]2O[C@@H](CO)[C@H](O)[C@H]2F)c(=O)n1	G-FAU-C2	VERO	plaque count	1.4 µM
N#Cc1cc([C@H]2C[C@H](O)[C@@H](CO)O2)c(F)cc1F	G	E6SM	cytopathic effect	>400 µg/mL
CCO/N=C/c1ccc(OCCC2CCN(c3ccc(Cl)nn3)CC2)cc1	HGP	KB	neutral red	0.001 µM
CC(=O)OC1CC2(CO1)COC(C)(C)O2	-	CCL18	-	>100 µM
OC[C@H]1O[C@@H](c2cc(F)c(F)cc2F)C[C@@H]1O	G	E6SM	cytopathic effect	>400 µg/mL
CCc1cn([C@@H]2OC3COP(=O)(O)OC3[C@H]2O)c(=O)nc1N	LYONS	-	-	>400 µg/mL
OC[C@H]1O[C@@H](c2cc(Cl)c(F)cc2F)C[C@@H]1O	LYONS	E6SM	cytopathic effect	>400 µg/mL
Nc1ncnc2c1ncn2[C@@H]1C[C@H](CO)[C@@H](O)[C@@H]1O	G-FIAC-C1	VERO	plaque count	85 µM
O=c1[nH]c(=O)n([C@H]2S[C@H](CO)[C@@H](O)[C@@H]2F)cc1F	MS	-	cytopathic effect	>27 µg/mL
OC[C@H]1O[C@H](c2cc(Cl)c(F)cc2F)C[C@@H]1O	G	E6SM	cytopathic effect	>400 µg/mL
O=c1[nH]c(=O)n([C@H]2C[C@H](O)[C@@H](CO)O2)cc1/C=C/Br	K979	HEP-2	cytopathic effect	<3 µg/mL
Nc1nc2c(ncn2COCCO)c(=O)[nH]1	MS	HEP-2	cytopathic effect	0.94 µg/mL
CC1(C)OCC2(CC(CO)OC2=O)O1	-	CCL18	-	>100 µM
CCCc1cn([C@@H]2O[C@H](COP(=O)(O)O)[C@@H](O)[C@H]2O)c(=O)nc1N	G	-	-	>400 µg/mL
C[C@@H](c1ccccc1)N(CC(=O)Nc1ccc(-c2csc(N)n2)cc1)C(=O)c1ccncc1	HG-52	BHK-21/C13	plaque count	0.11 µM
CCCCCCCC/C=C\CCCCCCCCOCCOP(=O)(O)CO[C@H](CO)Cn1ccc(N)nc1=O	G	HFF	plaque count	0.06 µM
Nc1nc2c(ncn2COCCO)c(=O)[nH]1	R-326 (acyclovir-susceptible)	HFF	cytopathic effect	1 µg/mL
COc1ccc2nc3n[nH]c(C)c3c(Cl)c2c1	-	WI-38	plaque count	1.2 µg/mL
CCCCCCCCCCCCOCCCOP(=O)(O)CO[C@H](CO)Cn1ccc(N)nc1=O	MS	HFF	plaque count	0.3 µM
C/C(=N/Nc1nc(-c2ccc(Br)cc2)cs1)c1ccc(NC(=O)CN2C(=O)c3ccccc3S2(=O)=O)cc1	G	HEL	cytopathic effect	>20 µM
O=c1[nH]c(=O)n([C@@H]2O[C@H](CO)[C@@H](O)[C@@H]2F)cc1I	K979	HEP-2	cytopathic effect	<0.1 µg/mL
O=c1ccn([C@@H]2C[C@](O)(CO)CO2)c(=O)[nH]1	-	CCL18	-	>100 µM
O=C(O)P(=O)(O)O	E-196	MEF	plaque count	20.5 µg/mL
Nc1nc(=O)n([C@@H]2O[C@H](CO)[C@@H](O)[C@@H]2F)cc1I	MS	HELF	plaque count	0.019 µg/mL
Nc1nc2c(ncn2COCCO)c(=O)[nH]1	-	HEF	cytopathic effect	0.53 µM
O=c1[nH]c(=O)n([C@@H]2S[C@H](CO)[C@@H](O)[C@@H]2F)cc1CCCl	MS	-	cytopathic effect	3 µg/mL
CSc1nnc(-c2ccccc2S(=O)(=O)NC(C)C)o1	G	HEL	cytopathic effect	>100 µM
CC1(C)OCC2(COC(O)C2)O1	-	CCL18	-	>100 µM
O=c1c2ncn(COC(CO)CO)c2nc2[nH]c(-c3ccc(C(F)(F)F)cc3)cn12	LYONS	HEL	cytopathic effect	9.6 µg/mL
CCCCCCCCCCCCCCCCOP(=O)(O)CO[C@H](CO)Cn1ccc(N)nc1=O	MS	HFF	plaque count	0.2 µM
O=c1[nH]c(=O)n([C@@H]2O[C@H](CO)[C@@H](O)[C@@H]2F)cc1I	G-FAC-C1	VERO	plaque count	17 µM
O=c1[nH]c(=O)n([C@@H]2O[C@H](COP(=O)(O)O)[C@@H](O)[C@@H]2O)cc1/C=C/Br	UW-268	HELF	plaque count	15.1 µg/mL
CCCCCCc1cn([C@@H]2O[C@H](COP(=O)(O)O)[C@@H](O)[C@H]2O)c(=O)nc1N	LYONS	-	-	>400 µg/mL
Cc1cn([C@H]2C[C@](O)(CO)CO2)c(=O)[nH]c1=O	-	CCL18	-	>100 µM
Cc1cn([C@@H]2OC3COP(=O)(O)OC3[C@H]2O)c(=O)nc1N	G	-	-	>400 µg/mL
C/C(=N\NC(=S)N(C)C1CCCCC1)c1ccccn1	X-79	BHK-21/4	plaque count	0.05 µg/mL
CC(C)c1cn([C@@H]2O[C@H](COP(=O)(O)O)[C@@H](O)[C@H]2O)c(=O)nc1N	LYONS	-	-	>400 µg/mL
Cc1cccc(C)c1N(CC(=O)Nc1ccc(-c2ncon2)cc1)C(C)C1CCS(=O)(=O)CC1	Whitlow 2	Vero Cells + HEF cells	plaque count	0.012 µM
Cc1cn([C@@H]2O[C@H](CO)[C@@H](O)[C@@H]2F)c(=O)[nH]c1=O	K979	HEP-2	cytopathic effect	<0.1 µg/mL
O=c1ccn([C@H]2C[C@](O)(CO)CO2)c(=O)[nH]1	-	CCL18	-	>100 µM
Cc1cn([C@@H]2O[C@H](CO)[C@@H](O)[C@@H]2O)c(=O)[nH]c1=O	UW-268	HELF	plaque count	0.52 µg/mL
Nc1nc2c(ncn2COCCO)c(=O)[nH]1	196	VERO	XTT	0.8 µM
CC(C)NS(=O)(=O)c1ccccc1C(=O)N/N=C/c1ccc(Br)cc1	G	HEL	cytopathic effect	>100 µM
Nc1nc2c(ncn2[C@@H]2C[C@H](CO)[C@H]2CO)c(=O)[nH]1	186/2'NDG^R	WI-38	plaque count	1–2 µM
CCCCCCCC/C=C\CCCCCCCOCCCOP(=O)(O)CO[C@H](CO)Cn1ccc(N)nc1=O	MS	HFF	plaque count	0.007 µM
Cc1cn([C@@H]2O[C@H](CO)[C@@H](O)[C@@H]2F)c(=O)[nH]c1=O	MS	HELF	plaque count	0.011 µg/mL
C/C(=N\NC(=S)N(C)C1CC2CCC1CC2)c1ccccn1	X-79	BHK-21/4	plaque count	0.11 µg/mL
CC1COc2c(N3CCN(C)CC3)c(F)cc3c(=O)c(C(=O)O)cn1c23	UW	HeLa	cytopathic effect	250 µg/mL
CC(C)NS(=O)(=O)c1ccccc1C(=O)N/N=C/c1ccccc1	G	HEL	cytopathic effect	>100 µM
[O-][n+]1onc2ncnc(N3CC[N+]4(CC3)CC[N+]3(CCN(c5ncnc6no[n+]([O-])c56)CC3)CC4)c21	P	GMK	plaque count	10.2 µM
CCCCCCCCCCCCCCCCCCOC[C@H](COP(=O)(O)CO[C@H](CO)Cn1ccc(N)nc1=O)OCc1ccccc1	SR	HFF	plaque count	0.09 µM
Nc1nc2c(ncn2COC(CO)CO)c(=O)[nH]1	K979	HEP-2	cytopathic effect	<0.3 µg/mL
CCCCC(=O)OC[C@H]1O[C@@H](n2cnc3c(N)ncnc32)[C@@H](O)[C@@H]1O	MS	MEF	plaque count	27 µM
O=c1ccn([C@@H]2O[C@H](CO)[C@@H](O)[C@@H]2F)c(=O)[nH]1	G-FMAU-C1	VERO	plaque count	>40 µM
CCCCCCCC/C=C\CCCCCCCOCCOP1(=O)CO[C@@H](Cn2ccc(N)nc2=O)CO1	MS	HFF	plaque count	0.01 µM
C/C(=N\NC(=S)N(C)C1CCCCCC1)c1ccccn1	X-79	BHK-21/4	plaque count	0.08 µg/mL
Nc1ncnc2c1ncn2[C@@H]1O[C@H](CO)[C@@H](O)[C@H]1OP(=O)(O)OC[C@H]1O[C@@H](n2cnc3c(N)ncnc32)[C@H](OP(=O)(O)OC[C@H]2O[C@@H](n3cc(/C=C/Br)c(=O)[nH]c3=O)C[C@@H]2O)[C@@H]1O	196	PRK	cytopathic effect	>100 µg/mL
Nc1ncnc2c1ncn2C[C@@H](CO)OCP(=O)(O)O	186 (TK-)	WI-38	plaque count	3 µM
Nc1nc(N)c2ncn([C@@H]3S[C@H](CO)[C@@H](O)[C@@H]3F)c2n1	MS	-	cytopathic effect	0.037 µg/mL
Nc1ncnc2c1ncn2[C@H]1[C@H](O)[C@H](F)[C@@H](CO)[C@@H]1O	G	HEP-2	cytopathic effect	90 µM
CC1(C)OCC2(CO[C@@H](n3ccc(=O)[nH]c3=O)C2)O1	-	CCL18	-	>100 µM
CCc1cn([C@@H]2S[C@H](CO)[C@@H](O)[C@@H]2F)c(=O)[nH]c1=O	MS	-	cytopathic effect	0.11 µg/mL

Repeating the final 3 entries:

smiles | strain or isolate | cell line | method | result
Nc1ncnc2c1ncn2[C@H]1[C@H](O)[C@H](F)[C@@H](CO)[C@@H]1O | G | HEP-2 | cytopathic effect | 90 µM
CC1(C)OCC2(CO[C@@H](n3ccc(=O)[nH]c3=O)C2)O1 | - | CCL18 | - | >100 µM
CCc1cn([C@@H]2S[C@H](CO)[C@@H](O)[C@@H]2F)c(=O)[nH]c1=O | MS | - | cytopathic effect | 0.11 µg/mL